Anti-infective test results gathered from many reports (values: NIAID ChemDB through PubChem).

All rows: growth or infection tests

Conditions beyond the fields shown may differ between rows.

| structure | agent | strain | cell line | read by | read-out | dose | value |
|---|---|---|---|---|---|---|---|
| CC(C)[C@H](NC(=O)[C@H](CCCN=C(N)N)NC(=O)N[C@@H](Cc1ccccc1)C(=O)O)C(=O)N[C@H](C=O)CCCN=C(N)N | Cryptosporidium parvum | - | - | - | inhibition | 500 µg/mL | 84.42% |
| CCC(C)n1ncn(-c2ccc(N3CCN(c4ccc(OC[C@H]5CO[C@](Cn6cncn6)(c6ccc(Cl)cc6Cl)O5)cc4)CC3)cc2)c1=O | Cryptococcus neoformans | - | - | - | MIC50 | - | 0.03–0.06 µg/mL |
| COC(=O)[C@H]1[C@@H]2C[C@@H](O[C@@H]3O[C@H](C)[C@@H](O)[C@H](N)[C@@H]3O)/C=C/C=C/C=C/C=C/C=C/C=C/C=C/[C@H](C)[C@@H](O)[C@H](C)[C@H](C)OC(=O)C[C@H](O)C[C@H](O)[C@@H](O)CC[C@H](O)C[C@H](O)C[C@](O)(C[C@@H]1O)O2 | Cryptococcus neoformans | ATCC32609 | - | - | MIC80 | - | 0.27 µM |
| Cc1c(O)cccc1C(=O)N[C@@H](CSc1ccccc1)[C@H](O)CN1C[C@H]2CCCC[C@H]2C[C@H]1C(=O)NC(C)(C)C | Cryptosporidium parvum | - | HCT-8 | - | inhibition | 10 µg/mL | 20% |
| CCCOc1ccc2nc(NC(=O)OC)[nH]c2c1 | Cryptococcus neoformans | IU4 | - | - | EC50 | - | 2.3 µg/mL |
| CC[C@@H]([C@H](C)O)n1ncn(-c2ccc(N3CCN(c4ccc(OC[C@@H]5CO[C@@](Cn6cncn6)(c6ccc(F)cc6F)C5)cc4)CC3)cc2)c1=O | Cryptococcus neoformans | - | - | - | MIC90 | - | 0.016–0.125 µg/mL |
| C[C@@H]1[C@H](O)[C@@H](C)/C=C/C=C/C=C/C=C/C=C/C=C/C=C/[C@H](O[C@@H]2O[C@H](C)[C@@H](O)[C@H](N)[C@@H]2O)C[C@@H]2O[C@](O)(C[C@@H](O)[C@H](O)CC[C@@H](O)C[C@@H](O)C[C@@H](O)CC(=O)O[C@H]1C)C[C@H](O)[C@H]2C(=O)O | Cryptococcus humicolus | ATCC 9949 | - | broth dilution | MIC | - | 2 µg/mL |
| Nc1ccc(S(=O)(=O)Nc2cnc3ccccc3n2)cc1 | Cryptosporidium parvum | Human isolate | L929 | - | EC50 | - | <0.8 µg/mL |
| COC(=O)Nc1nc2ccc(Sc3ccccc3)cc2[nH]1 | Cryptococcus neoformans | IU4 | - | - | EC90 | - | 0.028 µg/mL |
| CO[C@@H]1[C@@H](O)[C@H](O[C@@H]2[C@@H](O)[C@H](O[C@H]3[C@H](O)[C@@H](O)[C@H](O[C@H]4[C@H](O[C@H]5CC[C@]6(C)C7=C[C@H](O)[C@]89C(=O)O[C@@](C)(CCC=C(C)C)[C@H]8CC[C@@]9(C)[C@@H]7CC[C@H]6C5(C)C)OC[C@@H](O[C@@H]5O[C@H](CO)[C@@H](O)[C@H](O[C@@H]6O[C@H](CO)[C@@H](O)[C@H](OC)[C@H]6O)[C@H]5O)[C@@H]4O)O[C@@H]3C)O[C@H](CO)[C@H]2O)O[C@H](CO)[C@H]1O | Cryptococcus neoformans | ATCC32609 | - | - | MIC80 | - | 0.7 µM |
| COC(=O)Nc1nc2ccc(C(=O)c3cccs3)cc2[nH]1 | Cryptococcus neoformans | IU8698 | - | - | EC50 | - | 0.09 µg/mL |
| CC(C)(C)[C@](O)(COc1ccc(Cl)cc1)Cn1cncn1 | Cryptococcus neoformans | - | - | - | MIC90 | - | <0.01 µg/mL |
| CN(C/C=C/C#CC(C)(C)C)Cc1cccc2ccccc12 | Cryptococcus spp. | CCUG 18919 | - | - | MIC | - | 0.5 µg/mL |
| C[C@@H](c1ncncc1F)[C@](O)(Cn1cncn1)c1ccc(F)cc1F | Cryptococcus neoformans | - | - | - | MIC50 | - | 0.03–0.06 µg/mL |
| Nc1ccn([C@@H]2O[C@H](CO)[C@@H](O)[C@@H]2O)c(=O)n1 | Cryptosporidium parvum | - | - | - | inhibition | 1 µg/mL | 63% |
| CC(C)(C)NC(=O)[C@@H]1C[C@@H]2CCCC[C@@H]2CN1C[C@@H](O)[C@H](Cc1ccccc1)NC(=O)[C@H](CC(N)=O)NC(=O)c1ccc2ccccc2n1 | Cryptosporidium parvum | - | HCT-8 | - | inhibition | 10 µg/mL | 10% |
| Cc1cn([C@H]2C[C@H](N=[N+]=[N-])[C@@H](CO)O2)c(=O)[nH]c1=O | Cryptosporidium parvum | Calf isolate | L929 | - | inhibition | 20 µg/mL | 61.17% |
| CO[C@@H]1[C@@H](O)[C@H](O[C@@H]2[C@@H](O)[C@H](O[C@H]3[C@H](O)[C@@H](O)[C@H](O[C@H]4[C@H](O[C@H]5CC[C@]6(C)C7=C[C@H](O)[C@]89C(=O)O[C@@](C)(CCCC(C)(C)OC(C)=O)[C@H]8CC[C@@]9(C)[C@@H]7CC[C@H]6C5(C)C)OC[C@@H](O[C@@H]5O[C@H](CO)[C@@H](O)[C@H](O[C@@H]6O[C@H](CO)[C@@H](O)[C@H](OC)[C@H]6O)[C@H]5O)[C@@H]4O)O[C@@H]3C)O[C@H](CO)[C@H]2O)O[C@H](CO)[C@H]1O | Cryptococcus neoformans | ATCC32609 | - | - | MIC80 | - | 2.7 µM |
| Nc1nc(=O)n([C@H]2C[C@H](O)[C@@H](CO)O2)cc1I | Cryptosporidium parvum | - | - | - | inhibition | 10 µg/mL | 92% |
| Nc1[nH]c(=O)ncc1F | Cryptococcus neoformans | - | - | - | MIC50 | - | 1–4 µg/mL |
| NC(=O)c1ncn([C@@H]2O[C@H](CO)[C@@H](O)[C@H]2O)n1 | Cryptosporidium parvum | - | - | - | inhibition | 25 µg/mL | 73% |
| CO[C@@H]1[C@@H](O)[C@H](O[C@@H]2[C@@H](O)[C@H](O[C@H]3[C@H](O)[C@@H](O)[C@H](O[C@H]4[C@H](O[C@H]5CC[C@]6(C)C7=C[C@H](O)[C@]89C(=O)O[C@@](C)(CCCC(C)C)[C@H]8CC[C@@]9(C)[C@@H]7CC[C@H]6C5(C)C)OC[C@@H](O[C@@H]5O[C@H](CO)[C@@H](O)[C@H](O[C@@H]6O[C@H](CO)[C@@H](O)[C@H](OC)[C@H]6O)[C@H]5O)[C@@H]4O)O[C@@H]3C)O[C@H](CO)[C@H]2O)O[C@H](CO)[C@H]1O | Cryptococcus neoformans | ATCC32609 | - | - | MIC80 | - | 0.7 µM |
| CC(C)[C@H](NC(=O)[C@H](CCCN=C(N)N)NC(=O)N[C@@H](Cc1ccccc1)C(=O)O)C(=O)N[C@H](C=O)CCCN=C(N)N | Cryptosporidium parvum | - | - | cell count / microscopy | inhibition | 100 µg/mL | 57.9% |
| O=C(O)P(=O)(O)O | Cryptosporidium parvum | - | - | - | inhibition | 25 µg/mL | 0% |
| CCCCCOc1ccc(-c2cc(-c3ccc(C(=O)N[C@H]4C[C@@H](O)[C@@H](O)NC(=O)[C@@H]5[C@@H](O)[C@@H](C)CN5C(=O)[C@H]([C@H](O)CC(N)=O)NC(=O)[C@H]([C@H](O)[C@@H](O)c5ccc(O)c(OS(=O)(=O)O)c5)NC(=O)[C@@H]5C[C@@H](O)CN5C(=O)[C@H]([C@@H](C)O)NC4=O)cc3)no2)cc1 | Cryptococcus neoformans | - | - | - | MIC90 | - | >8 µg/mL |
| O=c1[nH]c(=O)n([C@H]2C[C@H](O)[C@@H](CO)O2)cc1C(F)(F)F | Cryptosporidium parvum | - | - | - | inhibition | 10 µg/mL | 84% |
| COc1cc(O)c2c(c1)OC(c1ccc(O)cc1)CC2=O | Cryptococcus gattii | NIH312 | - | broth dilution | MIC | - | 320 µg/mL |
| CCc1nc(N)nc(N)c1-c1ccc(Cl)cc1 | Cryptosporidium parvum | Calf isolate | L929 | - | inhibition | 4 µg/mL | 74.21% |
| O=c1[nH]c(=O)n([C@H]2C[C@H](O)[C@@H](CO)O2)cc1I | Cryptosporidium parvum | - | - | - | inhibition | 1 µg/mL | 57% |

3 of the rows above, restated:

structure	agent	strain	cell line	read by	read-out	dose	value
Nc1[nH]c(=O)ncc1F	Cryptococcus neoformans	-	-	-	MIC50	-	1–4 µg/mL
CC(C)(C)NC(=O)[C@@H]1C[C@@H]2CCCC[C@@H]2CN1C[C@@H](O)[C@H](Cc1ccccc1)NC(=O)[C@H](CC(N)=O)NC(=O)c1ccc2ccccc2n1	Cryptosporidium parvum	-	HCT-8	-	inhibition	10 µg/mL	10%
CC(C)(C)[C@](O)(COc1ccc(Cl)cc1)Cn1cncn1	Cryptococcus neoformans	-	-	-	MIC90	-	<0.01 µg/mL

Inhibition is in % at the dose shown (toxicity tests: loss of growth or viability). A number after MIC or MFC names an inhibition level or a share of isolates. Two numbers with a dash give a range or band. Blank or dashed fields: not listed here. ECn is the concentration giving n% inhibition of infection, replication or growth.